The target in the test is Botulinum neurotoxin type A (Clostridium botulinum) (UniProt P0DPI0). The experiment in a line: Inhibition of Clostridium botulinum recombinant Bont/A light chain expressed in Escherichia coli BL21 GOLD at 50 uM.

By UniProt entry, the sequences of proteins in these tests, tags left out.
UniProt P0DPI0, whole entry, looked up: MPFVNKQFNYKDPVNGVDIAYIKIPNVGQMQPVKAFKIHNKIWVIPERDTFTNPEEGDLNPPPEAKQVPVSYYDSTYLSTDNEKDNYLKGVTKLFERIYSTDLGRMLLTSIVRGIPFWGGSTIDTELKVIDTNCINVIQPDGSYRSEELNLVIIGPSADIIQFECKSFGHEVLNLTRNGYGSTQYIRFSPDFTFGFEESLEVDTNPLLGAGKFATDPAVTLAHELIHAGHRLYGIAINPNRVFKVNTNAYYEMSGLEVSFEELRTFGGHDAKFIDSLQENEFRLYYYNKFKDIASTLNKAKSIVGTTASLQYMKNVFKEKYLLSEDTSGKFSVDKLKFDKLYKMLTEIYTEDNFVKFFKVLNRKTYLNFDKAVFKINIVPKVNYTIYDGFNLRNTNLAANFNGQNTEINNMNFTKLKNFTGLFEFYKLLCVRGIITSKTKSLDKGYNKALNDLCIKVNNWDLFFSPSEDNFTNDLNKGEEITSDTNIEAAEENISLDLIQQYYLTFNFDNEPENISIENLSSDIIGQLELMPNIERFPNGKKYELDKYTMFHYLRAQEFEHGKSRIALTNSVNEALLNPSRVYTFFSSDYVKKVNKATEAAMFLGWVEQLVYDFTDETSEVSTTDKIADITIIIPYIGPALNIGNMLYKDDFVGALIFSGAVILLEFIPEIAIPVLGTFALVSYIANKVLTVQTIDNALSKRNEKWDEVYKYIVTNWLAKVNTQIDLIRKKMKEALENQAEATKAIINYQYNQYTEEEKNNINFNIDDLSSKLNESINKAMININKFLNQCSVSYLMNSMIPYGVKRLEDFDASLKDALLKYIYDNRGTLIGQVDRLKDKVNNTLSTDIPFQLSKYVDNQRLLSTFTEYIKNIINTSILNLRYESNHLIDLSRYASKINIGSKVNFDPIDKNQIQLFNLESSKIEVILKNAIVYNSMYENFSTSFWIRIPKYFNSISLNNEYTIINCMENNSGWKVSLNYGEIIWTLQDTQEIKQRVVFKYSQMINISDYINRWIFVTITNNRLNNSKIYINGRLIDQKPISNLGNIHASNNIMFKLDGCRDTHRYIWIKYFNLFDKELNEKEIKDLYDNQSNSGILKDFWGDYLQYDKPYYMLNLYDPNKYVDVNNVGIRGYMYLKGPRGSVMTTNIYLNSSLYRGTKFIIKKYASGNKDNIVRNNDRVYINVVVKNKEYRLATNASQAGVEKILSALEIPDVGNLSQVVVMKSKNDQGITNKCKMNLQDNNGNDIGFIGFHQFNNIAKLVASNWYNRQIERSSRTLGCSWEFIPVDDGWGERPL

What is called inhibition is the share of the control response that was lost under treatment. On to `CC(=O)Nc1cc(-c2ccc(Cl)cc2)n[nH]1`, for which the inhibition was less than 10%.

For `O=C(CO)Nc1cc(-c2ccc(Cl)cc2)n[nH]1`, the inhibition was less than 10%.

Source of the values: ChEMBL document CHEMBL1153454, “Botulinum neurotoxin serotype A inhibitors: small-molecule mercaptoacetamide analogs” (2009).
